# Assay results taken from paper PMC7858070.
# Sequences of proteins named here, by UniProt entry; tags and fusion partners are left off. A change or cut given only in a name is not applied to a line headed by its entry.
# UniProt Q9KUH3: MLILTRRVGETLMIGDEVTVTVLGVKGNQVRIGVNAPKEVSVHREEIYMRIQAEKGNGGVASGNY
# Target: CsrA (UniProt Q9KUH3)
# Assay: EMSA
# Details: initial shift at 375 nM CsrA, shift increases at 500 and 750 nM, reduced by 10- or 50-fold excess unlabeled aphA RNA; LightShift Chemiluminescent RNA EMSA kit conditions, 10 ul volume; 5% nondenaturing PAGE; buffer composition, pH and temperature not stated; recombinant protein; label: 3' biotin; probe letters rebuilt from the primers and the genome
sequence,measurement,value
GGGCUCUGUGAUAAGUAAUGUAAAGCAAUCUCACAGUUAAAGUAUGCAAAGACAUACGCCACUCUAGGUGAUAACCGGCUUUAUAAGGUGACAUAAGCAGACGAAUUUUGCGCUGCAGGUAUUUAAAUGCGUUGAUAUGCGUGCCAUUAGAAGCACAACAACCGUUUAGAUAGAGGUUUAUGUUGACUUAAUUUUUGGAUUGAAGACAUGUCAUUACCACACGUUAUCCUUACUGUUCUUAGCACACGCGAUGCAACCGGGUACGAUAUAACCAAAGAGUUUUCUGCUAGCAUUGGCUACUUCUGGAAAGCCAGCCAUCAGCAGGUAUAUCGUGAACUCAAUAAAAUGGGGGAACAGGGUUUAGUGACUUGUGUUCUGGAACCACAGGAAGGCAAACCAGAUCGCAAGGUUUAUUCUAUAACCCAAGCUGGCCGCAGCGC [aphA mRNA probe (+1 to +432)],binding result,binds

# Construct, isoform or probe ends are uncertain for at least one entry.
